Consider one molecule from PMC8441738 (MedComm, 2021).

The assay deals with SARS-CoV-2 RBD (residues Arg319-Phe541), His-tagged (SARS-CoV-2, UniProt P0DTC2). The assay is described as follows: SPR. Background: SPR reads the build-up and loss of mass on a sensor chip optically.

B1: MA5 monoclonal antibody (antibody, V domains shown)
VH: EVMLVESGGGLVKPGGSLKLSCAASGFMFSRYAMSWVRQTPEKRLEWVATISSGGSYTYYPDSVKGRFTMSRDNAKNTLYLQMSSLRSEDTAMYNCARHDGNYVDYAMDYWGQGTSVTVSS
VL: QIVLTQSPAIMSASLGEEITLTCSASSSVSHMHWYQQKSGTSPKLLIYSTFNLASGVPSRFSGSGSGTFYSLTISSVEAEDAADYYCHQWSSWTFGGGTKLEIK
notes: also called group IV mAb; source: hybridoma cell line or transfection of linear expression cassettes
In the case of B1, the binding result is reported as “binds”.
